Anti-infective test results gathered from many reports (values: NIAID ChemDB through PubChem).

All rows: growth or infection tests; organism: HIV-1; cells: PBMC; endpoint: EC50

ECn: concentration that inhibits the pathogen or its effect by n%.

SMILES,strain,changes,method,conditions,value
Nc1ccc(-c2c3nc(c(-c4ccc(N)cc4)c4ccc([nH]4)c(-c4ccc(N)cc4)c4nc(c(-c5ccc(N)cc5)c5ccc2[nH]5)C=C4)C=C3)cc1,LAV,-,RT activity,-,13.3 µM
CCCCCCCCCc1ccc(OCCOCCOCCOCCOCCOCCOCCOCCOCCO)cc1,IIIB,-,p24,-,2.195 µM
O=C1N(Cc2ccc(CO)cc2)[C@H](Cc2ccccc2)[C@H](O)[C@@H](O)[C@@H](Cc2ccccc2)N1Cc1ccc(CO)cc1,IIIB,-,p24,-,0.018 µM
COc1ccc(C(C)(C)CCCC(C)C)c(OC)c1O,-,-,p24 / ELISA / antigen,-,15.8 µM
CC(=O)N1CCC(C(=O)N(CCCN2CCC(Cc3ccc(C(N)=O)cc3)CC2)c2ccc(C)c(Cl)c2)CC1,JR-FL R5,-,p24,-,0.00064 µM
CC(C)CCCC(C)(C)c1ccc(O)cc1O,-,-,p24 / ELISA / antigen,-,14.8 µM
CC(C)CN(C[C@@H](O)[C@H](Cc1ccccc1)NC(=O)O[C@H]1CCOC1)S(=O)(=O)c1ccc(N)cc1,97ZA003,-,p24 / luminescence,-,0.032 µM
Cc1cn([C@H]2C[C@H](N=[N+]=[N-])[C@@H](CO)O2)c(=O)[nH]c1=O,Recombinant,RT-F77L,p24,-,0.001 µM
COC(=O)[C@H](C)NP(=O)(OC[C@H]1O[C@@H](N2C(=O)NC(=O)C(C)(Br)C2OC)C[C@@H]1N=[N+]=[N-])Oc1ccc(Br)cc1,IIIB,-,p24 / ELISA,-,0.005 µM
Cc1cn([C@@H]2C[C@@H](O)[C@H](CO)O2)c(=O)[nH]c1=O,LAI,-,RT activity,-,>200 µM
COc1ccc(-c2c3nc(c(-c4ccc(OC)cc4OC)c4ccc([nH]4)c(-c4ccc(OC)cc4OC)c4nc(c(-c5ccc(OC)cc5OC)c5ccc2[nH]5)C=C4)C=C3)c(OC)c1,LAV,-,RT activity,-,>100 µM
COC(=O)[C@H](C)NP(=O)(OC[C@@H]1C=C[C@H](n2cc(C)c(=O)[nH]c2=O)O1)Oc1ccc(Br)cc1,52534-2 NRTI resistant recombinant,RT-M41L T69ins L74V M184V L210W T215Y,RT activity,-,0.0046 µM
COC(=O)[C@H](Cc1c[nH]c2ccccc12)NP(=O)(OC[C@H]1O[C@@H](N2C(=O)NC(=O)C(C)(Br)C2OC)C[C@@H]1N=[N+]=[N-])Oc1ccccc1,IIIB,-,p24 / ELISA,-,0.14 µM
S=C(NCCC1=CCCCC1)Nc1ccc(Cl)cn1,IIIB,-,-,-,0.003 µM
Cc1ccnc2c1NC(=O)c1cccnc1N2C1CC1,Resistant (MDR) isolate,RT-M41L K103N T215Y,RT activity,-,14.8 µM
Nc1nc(=O)n([C@@H]2CS[C@H](CO)O2)cc1F,Clinical isolate,A114S,single cycle / fluorescence,-,0.02718 µM
Nc1ccccc1-c1c2nc(c(-c3ccccc3N)c3ccc([nH]3)c(-c3ccccc3N)c3nc(c(-c4ccccc4N)c4ccc1[nH]4)C=C3)C=C2,LAV,-,RT activity,-,18.3 µM
CC(C)Nc1cccnc1N1CCN(C(=O)c2cc3cc(NS(C)(=O)=O)ccc3[nH]2)CC1,Clinical isolate wild type,-,RT activity,-,0.04 µM
Cc1cn([C@H]2C[C@H](N=[N+]=[N-])[C@@H](CO)O2)c(=O)[nH]c1=O,LAV,-,RT activity,-,0.002 µM
CC(C)[C@H](NC(=O)c1ccc2ccccc2n1)C(=O)N[C@@H](Cc1ccccc1)[C@H](O)CN1CC[C@@H](OCc2ccncc2)C[C@H]1C(=O)NC(C)(C)C,NEVR,-,p24 / ELISA / antigen,-,0.0036 µM
Cc1cn([C@@H]2C[C@@H](N)[C@H](CO)O2)c(=O)[nH]c1=O,LAI,-,RT activity,-,>10 µM
Oc1cc(O)cc(-c2c3nc(c(-c4cc(O)cc(O)c4)c4ccc([nH]4)c(-c4cc(O)cc(O)c4)c4nc(c(-c5cc(O)cc(O)c5)c5ccc2[nH]5)C=C4)C=C3)c1,LAV,-,RT activity,-,>100 µM
Nc1ccn([C@H]2CC[C@@H](CO)O2)c(=O)n1,IIIB,-,p24,-,0.01 µM
CCC[C@@]1(CCc2ccccc2)CC(O)=C([C@H](CC)c2cccc(NS(=O)(=O)c3ccc(C(F)(F)F)cn3)c2)C(=O)O1,472 clinical isolates AZT-resistant,-,p24,-,<0.03 µM
COc1cccc(-c2c3nc(c(-c4cccc(OC)c4)c4ccc([nH]4)c(-c4cccc(OC)c4)c4nc(c(-c5cccc(OC)c5)c5ccc2[nH]5)C=C4)C=C3)c1,LAV,-,RT activity,-,>100 µM
CC(C)[C@H](NC(=O)c1ccc2ccccc2n1)C(=O)N[C@@H](Cc1ccccc1)[C@H](O)CN1CC[C@@H](OCc2ccncc2)C[C@H]1C(=O)NC(C)(C)C,VR1372,-,p24,-,0.004 µM
CC(C)Nc1cccnc1N1CCN(C(=O)c2cc3cc(NS(C)(=O)=O)ccc3[nH]2)CC1,A17,RT-K103N Y181C,-,-,>100 µM
COc1ccc(C(C)(C)CCCC(C)C)c(OC)c1,-,-,p24 / ELISA / antigen,-,>200 µM
Nc1ccn([C@@H]2C[C@@H](O)[C@H](CO)O2)c(=O)n1,LAI,-,RT activity,-,>200 µM
Cc1cn([C@H]2C[C@H](N=[N+]=[N-])[C@@H](CO)O2)c(=O)[nH]c1=O,Primary clinical isolate Rome,-,p24,-,<3.7 µM
Cc1ccc(NC(=S)NCCC2=CCCCC2)nc1,IIIB,-,-,-,0.005 µM
Nc1nc(=O)n([C@@H]2C[C@@H](O)[C@H](CO)O2)cc1F,LAI,-,RT activity,-,>100 µM
COC[C@@H](c1ccc(C(F)(F)F)cc1)N1CCN(C2(C)CCN(C(=O)c3c(C)ncnc3C)CC2)C[C@@H]1C,-,M518V F519I,luciferase,-,0.00017 µM
CC(C)CN(C[C@@H](O)[C@H](Cc1ccc(F)cc1)NC(=O)O[C@H]1CCO[C@H]2OCC[C@H]21)S(=O)(=O)c1ccc2nc(NC(C)C)sc2c1,BaL,-,p24 / luminescence,-,0.0009 µM
COC(=O)[C@@H]1CCCN1P(=O)(OC[C@H]1O[C@@H](N2C(=O)NC(=O)C(C)(Br)C2OC)C[C@@H]1N=[N+]=[N-])Oc1ccc(Br)cc1,IIIB,-,p24 / ELISA,-,0.049 µM
Cc1cn([C@H]2C[C@H](N=[N+]=[N-])[C@@H](CO)O2)c(=O)[nH]c1=O,G890-1 NRTI resistant,RT-K20R M41L D67N T69N K70R L210W T215Y,p24,-,>3.2 µM
Cc1cn([C@H]2C[C@H](N=[N+]=[N-])[C@@H](CO)O2)c(=O)[nH]c1=O,G910-11-(RT-T215Y/F) NRTI resistant,RT-T215Y/F,p24,-,0.216 µM
O=c1[nH]cnc2c1ncn2[C@H]1CC[C@@H](CO)O1,NL4-3 WT,-,p24,-,0.4 µM
COC(=O)[C@@H]1CCCN1P(=O)(OC[C@H]1O[C@@H](N2C(=O)NC(=O)C(C)(Br)C2OC)C[C@@H]1N=[N+]=[N-])Oc1ccccc1,IIIB,-,p24 / ELISA,-,0.246 µM
Oc1ccccc1-c1c2nc(c(-c3ccccc3O)c3ccc([nH]3)c(-c3ccccc3O)c3nc(c(-c4ccccc4O)c4ccc1[nH]4)C=C3)C=C2,LAV,-,RT activity,-,3.1 µM
COC(=O)[C@H](C)NP(=O)(OC[C@H]1O[C@@H](n2cc(C)c(=O)[nH]c2=O)C[C@@H]1N=[N+]=[N-])Oc1ccc(Br)cc1,IIIB,-,p24 / ELISA,-,0.006 µM
O=c1[nH]cnc2c1ncn2[C@H]1CC[C@@H](CO)O1,689,-,ELISA,-,3.5 µM
Cc1cn([C@H]2C[C@H](N=[N+]=[N-])[C@@H](CO)O2)c(=O)[nH]c1=O,SIKA,-,cytopathic effect / XTT,clinical isolate,0.02 µM
COC(=O)[C@H](Cc1c[nH]c2ccccc12)NP(=O)(OC[C@H]1O[C@@H](N2C(=O)NC(=O)C(C)(Br)C2OC)C[C@@H]1N=[N+]=[N-])Oc1ccc([N+](=O)[O-])cc1,IIIB,-,p24 / ELISA,-,0.04 µM

Repeating the final 4 entries:

SMILES,strain,changes,method,conditions,value
COC(=O)[C@H](C)NP(=O)(OC[C@H]1O[C@@H](n2cc(C)c(=O)[nH]c2=O)C[C@@H]1N=[N+]=[N-])Oc1ccc(Br)cc1,IIIB,-,p24 / ELISA,-,0.006 µM
O=c1[nH]cnc2c1ncn2[C@H]1CC[C@@H](CO)O1,689,-,ELISA,-,3.5 µM
Cc1cn([C@H]2C[C@H](N=[N+]=[N-])[C@@H](CO)O2)c(=O)[nH]c1=O,SIKA,-,cytopathic effect / XTT,clinical isolate,0.02 µM
COC(=O)[C@H](Cc1c[nH]c2ccccc12)NP(=O)(OC[C@H]1O[C@@H](N2C(=O)NC(=O)C(C)(Br)C2OC)C[C@@H]1N=[N+]=[N-])Oc1ccc([N+](=O)[O-])cc1,IIIB,-,p24 / ELISA,-,0.04 µM

Rows are shuffled and stem from different studies. An empty or dashed field is not shown.